Measurements reported in paper PMC8002998.

Target: T1, OhrR-C (chromosomal OhrR) (Acinetobacter baumannii ATCC 19606) (UniProt A0A077GRS4)
T1 sequence (looked up, limits assumed): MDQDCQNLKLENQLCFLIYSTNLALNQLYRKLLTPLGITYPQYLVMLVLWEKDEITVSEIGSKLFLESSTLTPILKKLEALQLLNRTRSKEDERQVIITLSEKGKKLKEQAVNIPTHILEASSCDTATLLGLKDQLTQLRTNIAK
Assay: EMSA
Settings: 600 nM OhrR-C, 50 nM DNA, 20 mM Tris-HCl pH 7.5, 100 mM MgCl2, 150 mM KCl, 50 mM EDTA, 12.5% glycerol, 250 uM DTT, 830 ng/mL poly(dI-dC), 250 ng/mL BSA, room temperature, recombinant protein, protein details: His tag implied (pQE80L BamHI/KpnI, Ni-affinity)

Sequence | binding result
ACCAATTTTTTTACAAAATTGACTTGTTAAAATAATTAAGTCGTG (double strand) [Pohr-1] | no binding
TACGATATATTTGCATTCAATTTAATTTAGGAATAAAAAG (double strand) [Pohr-2] | no binding

No signal at the amounts used counts as a negative. At least one verdict rests on a figure or table, not on a statement of the authors. Where a protein sequence is shown, tags need not be part of it.
